A mixed list of measured activities; the numbers were collected in NIAID ChemDB.

All rows: tests in culture; organism: Mycobacterium tuberculosis

A number after MIC or MFC names an inhibition level or a share of isolates.

SMILES	cell line	strain	method	measure	tested at	result
O=[N+]([O-])c1cn2c(n1)OC[C@@H](OCc1ccc(OC(F)(F)F)cc1)C2	-	H37Rv-T2-3547 (PA-824-resistant)	-	MIC	-	1.6 µM
Oc1ccc(Cl)cc1C(=S)Nc1ccccc1	-	My 331/88	-	MIC	-	1 µM
Cl.NCCc1nc(-c2nc(C(=O)Nc3ccccc3)cs2)cs1	-	H37Rv	BACTEC	MIC bound	-	>12.8 µg/mL
C[C@@H]1Cn2cc(C(=O)O)c(=O)c3cc(F)c(N4CCN(/C(N)=N/C(N)=NCCCCCCN=C(N)/N=C(\N)N5CCN(c6c(F)cc7c(=O)c(C(=O)O)cn8c7c6O[C@@H](C)C8)CC5)CC4)c(c32)O1	-	H27Rv	broth dilution	MBC	-	1.25 µg/mL
CCc1cc(-n2c3c(CC)c(=O)c(CC)cc-3nc3ccccc32)cc(CC)c1O	-	H37Rv	BACTEC	inhibition	12.5 µg/mL	-43%
CCC(C)c1ccc(NC(=S)c2cc(Cl)ccc2O)cc1	-	My 331/88	-	MIC	-	2 µM
C=C1C(=O)O[C@@H]2C[C@@]3(C)CCC[C@H](C)C3=C[C@H]12	-	H37Rv	-	MIC	-	32 µg/mL
CC(C)N=C(N)N(OCCCOc1cc(Cl)c(Cl)cc1Cl)C(=N)N	-	H37Rv	-	MIC	-	8 µg/mL
CCCCCCCCOC(=O)c1cnccn1	-	KK11-20	-	MIC	-	100 µg/mL
S=C(NCCNC(=S)SSC(=S)NNc1ccccc1)SSC(=S)NNc1ccccc1	-	H37Rv	BACTEC	MIC bound	-	≤128 µg/mL
CC(C)[C@H]1CC[C@H]2[C@@H]3C=C[C@](C)(O)[C@H](O)C[C@]3(C)CC[C@]12C(=O)O	-	H37Rv	resazurin	MIC	-	100 µg/mL
COc1ccc(/C=C/C=N/NC(=O)c2ccncc2)cc1	-	H37Rv	-	MIC90	-	0.2 µg/mL
C/C(=C\CO)CCC[C@H](C)CCC[C@H](C)CCCC(C)C	-	H37Rv	-	MIC	-	2 µg/mL
COc1cc(Cc2cnc(N)nc2N)cc(OC)c1OC	-	ATCC 27294	BACTEC	inhibition	76 µg/mL	22%
Cn1c(NNc2nc(Nc3ccc(Cl)cc3)nc(Nc3ccc(Cl)cc3)n2)nc(-c2ccccc2)c(C#N)c1=O	-	H37Rv	-	inhibition	12.5 µg/mL	0%
c1ccc2c(c1)SCC1COCOC21	-	H37Rv	BACTEC	MIC bound	-	>12.5 µg/mL
Cc1cc(O)c2c(c1)C(=O)C=CC2=O	-	DP481/01 (isoniazid rifampicin-resistant)	-	MIC	-	1.25 µg/mL
CSC1=NC2(CC2c2ccccc2)C(=O)N1	-	H37Rv	resazurin	inhibition	6.25 µg/mL	4%
C=C(C)[C@@H]1CC[C@]2(CO)CC[C@]3(C)[C@H](CC[C@@H]4[C@@]5(C)CC[C@H](O)C(C)(C)[C@@H]5CC[C@]43C)[C@@H]12	-	H37Rv	-	MIC	-	>128 µg/mL
CC1CC[C@H]2[C@@H]3CC[C@H](C(C)C)[C@@]3(C(=O)O)CC[C@@]2(C)CC1	-	CIBIN 99	resazurin	MIC	-	50 µg/mL
C[C@H]1c2ccoc2C[C@H]2[C@H]1[C@@H](O)[C@@H](OC(=O)/C=C/c1ccccc1)[C@@]1(O)C(C)(C)CCC[C@]21C	-	H37Ra	-	MIC	-	6.25 µg/mL
Cc1ccc2c(c1)c1c3n2CCN(C(=O)CCC(=O)O)C3CCC1	-	H37Rv	-	MIC	-	32 µg/mL
O=[N+]([O-])c1cccc(CSc2nc3ccccc3[nH]2)c1	-	My 331/88	-	MIC	-	>32 µM
Cc1ccc2c(c1)c1c3n2CCN(CC(O)Cc2ccccc2)C3CCC1	-	H37Rv	-	MIC	-	4 µg/mL
C=C1C(=O)O[C@@H]2C1[C@@H](OC(C)=O)C[C@H](C)[C@@H]1CCC(=O)[C@@]21C	-	H37Rv	-	MIC	-	128 µg/mL
C(CNCC1CCCC1)CNCC1CCCC1	-	H37Rv	-	MIC	-	8 µg/mL
CCCCCCOc1ccc(/C=N/NC(=O)c2ccncc2)cc1	-	H37Rv	-	MIC90	-	0.39 µg/mL
C=C1C(=O)OC2C1CCC(C)C1(O)C=CC(=O)C21C	-	H37Rv	-	MIC	-	64 µg/mL
Cn1c(NNc2nc(Nc3cccc(Cl)c3)nc(Nc3cccc(Cl)c3)n2)nc(-c2ccccc2)c(C#N)c1=O	VERO	H37Rv	-	MIC	-	12.5 µg/mL
O=C1NN=C(c2ccccc2)SC1c1ccccc1	-	H37Rv	resazurin	inhibition	6.25 µg/mL	54%
O=C(NN=C1CCCCC1)c1ccncc1	-	Ethambutol-resistant	-	MIC	-	0.05 µg/mL
Cn1c(NNc2nc(Nc3cccc(Cl)c3)nc(Nc3cccc(Cl)c3)n2)nc(-c2ccc(Cl)cc2)c(C#N)c1=O	-	H37Rv	-	EC50	-	>12.5 µg/mL
CC(C)Sc1nc2ccccc2[nH]1	-	My 331/88	-	MIC	-	>500 µM
O=C1C(n2ccc(=O)[nH]c2=O)CCN1CCCl	-	H37Rv	BACTEC	MIC bound	-	>12.8 µg/mL
CC(C)(C)C1CCC(=NNC(=O)c2ccncc2)CC1	-	-	-	MIC	-	0.05 µg/mL
C[C@H]1[C@H](C)CC[C@]2(CO)CC[C@]3(C)C(=CC[C@@H]4[C@@]5(C)CC[C@H](O)C(C)(C)[C@@H]5CC[C@]43C)[C@H]12	-	H37Rv	-	MIC	-	32 µM
Cc1cccc(NC2=CC(=O)C(=O)c3ccccc32)c1	-	H37Rv	resazurin	MIC bound	-	>6.25 µg/mL
CO[C@H]1/C=C/O[C@@]2(C)Oc3c(C)c(O)c4c(O)c(c(/C=N/N5CCN(c6cccc7ccccc67)CC5)c(O)c4c3C2=O)NC(=O)/C(C)=C\C=C\[C@H](C)[C@H](O)[C@@H](C)[C@@H](O)[C@@H](C)[C@H](OC(C)=O)[C@@H]1C	-	H37Rv	-	MIC	-	0.07–3.12 µg/mL
NC(=O)N=C1/C(=C/c2ccco2)CNC/C1=C\c1ccco1	-	H37Rv	agar / visual reading	MIC	-	12.5 µg/mL
CO[C@H]1/C=C/O[C@@]2(C)Oc3c(C)c(O)c4c(O)c(c(C=Nc5c(C)n(C)n(-c6ccccc6)c5=O)c(O)c4c3C2=O)NC(=O)/C(C)=C\C=C\[C@H](C)[C@H](O)[C@@H](C)[C@@H](O)[C@@H](C)[C@H](OC(C)=O)[C@@H]1C	-	H37Rv	-	MIC	-	>50 µg/mL
N/C(COc1cccc(Cl)c1)=N/NC(=O)c1ccncc1	-	H37Rv	-	MIC	-	3.12 µg/mL
Cc1ccc2c(c1)c1c3n2CCN(C(=O)/C=C/C(=O)O)C3CCC1	-	ATCC 607	-	MIC	-	125 µg/mL
CCCNCC(O)COc1ccc2c3c(c(=O)oc2c1)CCC3	-	H37Rv	BACTEC	inhibition	12.5 µg/mL	-3%
CC1CN(c2c(F)cc3c(=O)c(C(=O)O)cn(C4CC4)c3c2F)CC(C)N1	-	CSU20	-	MIC	-	0.25 µg/mL
CCCc1cc(-c2nc(-c3ccncc3)cs2)ccn1	-	H37Rv	turbidity	MIC80	-	1.4 µg/mL
S=C(S)N1CCCCC1	-	INH-r	-	MIC	-	0.8 µg/mL
CC(C)[C@H]1CC[C@@H]2[C@]1(C)CCC13CC[C@](C)(O1)[C@H](CO)[C@]23O	-	H37Rv	resazurin	MIC	-	100 µg/mL
CCc1ccc(NC(=S)c2cc(Cl)ccc2O)cc1	-	My 331/88	-	MIC	-	2 µM
O=S(=O)(OC1/C(=C/c2ccco2)CNC/C1=C\c1ccco1)c1ccccc1	-	H37Rv	agar / visual reading	MIC	-	3.125 µg/mL
COc1cc(O[C@@H]2O[C@H](CO)[C@@H](O)[C@H](O)[C@H]2O)c2c(c1)O[C@H](c1ccc(O)cc1)CC2=O	-	H37Rv	BACTEC	inhibition	12.5 µg/mL	2%
OCC1CCCC1CNCCCCCCNCC1CCCC1CO	-	H37Rv	-	MIC	-	>64 µg/mL
CC1(C)N=C(N)N=C(N)N1c1ccc(Cl)cc1	-	H37Rv	-	MIC	-	64 µg/mL
CC(C)/C=C/C[C@H]1C(=O)O[C@H]2C[C@]3(C)C4=CC[C@H]5C(C)(C)C(=O)CC[C@]5(C)C4C[C@@H](O)[C@@]3(C)[C@@H]21	-	H37Rv	-	MIC	-	16 µg/mL
Cn1c(NNc2nc(Nc3ccc(Cl)cc3)nc(Nc3ccc(Cl)cc3)n2)nc(-c2ccc(Cl)cc2)c(C#N)c1=O	-	H37Rv	-	inhibition	12.5 µg/mL	94%
N/C(COc1ccc([N+](=O)[O-])cc1)=N/NC(=O)c1ccncc1	-	16 isolates	-	MIC50	-	12.5 µg/mL
NNC(=O)c1ccncc1	-	H37Ra	-	MIC	-	0.04–0.09 µg/mL
Clc1ccc(CSc2nc3ccccc3[nH]2)cc1Cl	-	My 331/88	-	MIC	-	>32 µM
OC1/C(=C/c2ccco2)CNC/C1=C\c1ccco1	-	H37Rv	agar / visual reading	MIC	-	12.5 µg/mL
COc1ccc(NC(=S)c2cc(Cl)ccc2O)cc1	-	My 331/88	-	MIC	-	1 µM
O=C1CN(CCN2CCCCC2)CC(=O)N2Cc3ccccc3CN12	-	H37Rv	BACTEC	MIC bound	-	>12.5 µg/mL
CC(C)[C@H]1CC[C@H]2[C@@H]3C=CC4(C)CC[C@@]3(CC[C@]12C(=O)O)CO4	-	H37Rv	resazurin	MIC	-	100 µg/mL
CC(C)c1ccc(/C=C2/CSCC3=C2NC(=S)NC3c2ccc(C(C)C)cc2)cc1	-	H37Rv	BACTEC	MIC bound	-	>12.5 µg/mL
Cc1ccc2c(c1)c1c3n2CCN(CC(O)CNC2CCCCC2)C3CCC1	-	H37Rv	-	MIC	-	4 µg/mL
Cn1c(NNc2nc(Nc3cc(Cl)cc(Cl)c3)nc(Nc3cc(Cl)cc(Cl)c3)n2)nc(-c2ccc(Cl)cc2)c(C#N)c1=O	-	H37Rv	-	EC50	-	<12.5 µg/mL
C[C@H](CC[C@H]1OC1(C)C)[C@H]1CC[C@@]2(C)[C@@H]3CC[C@H]4C(C)(C)[C@H](O)CC[C@@]45C[C@@]35CC[C@]12C	-	H37Rv	-	MIC	-	8 µg/mL
N#Cc1ccc(CSc2nc3ccccc3[nH]2)cc1	-	My 331/88	-	MIC	-	>62 µM
O=C(N/N=C/C=C/c1ccccc1[N+](=O)[O-])c1ccncc1	-	Erdman	-	MIC90	-	0.25 µg/mL
NCCCN(CCCN)CCCNCc1c2ccccc2c(CNCCCN(CCCN)CCCN)c2ccccc12	-	H37Rv	BACTEC	MIC bound	-	>12.5 µg/mL
Cn1c(NNc2nc(Nc3ccccn3)nc(Nc3ccccn3)n2)nc(-c2ccccc2)c(C#N)c1=O	-	H37Rv	-	EC50	-	>12.5 µg/mL
COC(=O)[C@]12CC[C@@]3(COC(C)=O)CC4OOC(C=C4C)[C@H]3[C@@H]1CC[C@@H]2C(C)C	-	CIBIN 99	resazurin	MIC	-	50 µg/mL
OCNC(=S)c1cnccn1	-	KK11-20	-	MIC	-	25 µg/mL
CN1C[C@H](c2ccccc2)[C@]2(CC3C=CC=CC3C2=O)[C@]12C(=O)c1cccc3cccc2c13	-	H37Rv	broth dilution / resazurin	EC50	-	>100 µM
Cc1cc2nc3ccc(=[N+](C)C)cc-3sc2cc1N	-	H37Rv	BACTEC	inhibition	12.5 µg/mL	91%
Cc1ccc2c(c1)c1c3n2CCNC3CCC1	-	ATCC 607	-	MIC	-	32 µg/mL
O=c1ccc2nc3ccc(O)cc3oc-2c1	-	H37Rv	BACTEC	MIC bound	-	>128 µg/mL
Fc1ccccc1N=C1/C(=C/c2ccco2)CNC/C1=C\c1ccco1	-	H37Rv	agar / visual reading	MIC	-	3.125 µg/mL
CCC(N)C(=O)NC(CO)C(=O)O	-	H37Rv	BACTEC	inhibition	12.8 µg/mL	24%
Cn1c(NNc2nc(NCc3ccccc3)nc(NCc3ccccc3)n2)nc(-c2ccccc2)c(C#N)c1=O	-	H37Rv	-	MIC	-	>12.5 µg/mL
O=C(CSC(=S)N1CCCCC1)c1ccccc1	-	H37Rv	BACTEC	inhibition	128 µg/mL	82%
Cc1c(N2C[C@@H]3CCCN[C@@H]3C2)c(F)cn2c(=O)c(C(=O)O)cc(C3CC3)c12	-	ATCC35838	-	MIC	-	0.031 µg/mL
CC1=C(C(=O)NCc2ccccc2)C(c2cccc([N+](=O)[O-])c2)C(C(=O)NCc2ccccc2)=C(C)N1	-	H37Rv	resazurin	inhibition	6.25 µg/mL	-3%
C[C@H]1[C@H](C)CC[C@]2(C(=O)O)CC[C@]3(C)C(=CC[C@@H]4[C@@]5(C)CC[C@H](O)C(C)(C)[C@@H]5CC[C@]43C)[C@H]12	-	H37Rv	-	MIC	-	32 µM
Nc1cnn2nnnc2c1	-	H37Rv	BACTEC	inhibition	12.5 µg/mL	0%
CC(C)CSc1nc2ccccc2[nH]1	-	My 331/88	-	MIC	-	>250 µM

Repeating the final 6 entries:

SMILES | cell line | strain | method | measure | tested at | result
O=C(CSC(=S)N1CCCCC1)c1ccccc1 | - | H37Rv | BACTEC | inhibition | 128 µg/mL | 82%
Cc1c(N2C[C@@H]3CCCN[C@@H]3C2)c(F)cn2c(=O)c(C(=O)O)cc(C3CC3)c12 | - | ATCC35838 | - | MIC | - | 0.031 µg/mL
CC1=C(C(=O)NCc2ccccc2)C(c2cccc([N+](=O)[O-])c2)C(C(=O)NCc2ccccc2)=C(C)N1 | - | H37Rv | resazurin | inhibition | 6.25 µg/mL | -3%
C[C@H]1[C@H](C)CC[C@]2(C(=O)O)CC[C@]3(C)C(=CC[C@@H]4[C@@]5(C)CC[C@H](O)C(C)(C)[C@@H]5CC[C@]43C)[C@H]12 | - | H37Rv | - | MIC | - | 32 µM
Nc1cnn2nnnc2c1 | - | H37Rv | BACTEC | inhibition | 12.5 µg/mL | 0%
CC(C)CSc1nc2ccccc2[nH]1 | - | My 331/88 | - | MIC | - | >250 µM

MIC bound comes from a single tested concentration. Inhibition is in % at the dose shown (toxicity tests: loss of growth or viability). Blank or dashed fields: not listed here. a–b is a range or a potency band. Conditions beyond the fields shown may differ between rows. ECn: concentration that inhibits the pathogen or its effect by n%.